Anti-infective test results gathered from many reports (values: NIAID ChemDB through PubChem).

All rows: tests in culture; agent: Yellow fever virus; endpoint: EC50

Blank or dashed fields: not listed here.

O=C1Nc2ccc([N+](=O)[O-])cc2/C1=N/N=C1/SCC(=O)N1C1CCCCC1 ; cells: VERO ; result: 1.96 µg/mL
O=C(Nc1nccc2c1ncn2[C@@H]1C[C@H](CO)[C@@H](O)[C@H]1O)c1ccccc1 ; cells: MK2 ; strain or isolate: Asibi ; result: 70 µg/mL
CN[C@H]1C[C@@H](n2cnc3c(N)ncnc32)[C@H](O)[C@@H]1O ; cells: HFF ; result: >100 µg/mL
O=[N+]([O-])c1ccc2[nH]c(O)c(N=NC(=S)NC3CCCCC3)c2c1 ; cells: VERO ; result: <0.8 µg/mL
O=c1cnn([C@@H]2O[C@H](CO)[C@@H](O)[C@H]2O)c(=O)[nH]1 ; cells: VERO ; strain or isolate: Asibi ; result: 0.49 µg/mL
Cc1ccc(N2C(=O)C(C)S/C2=N/N=C2\C(=O)Nc3ccc([N+](=O)[O-])cc32)cc1 ; cells: VERO ; result: >20 µg/mL
CC(=O)OC[C@H]1O[C@@H](n2c(C(N)=S)cc(=O)[nH]c2=O)C(OC(C)=O)C1OC(C)=O ; cells: VERO ; strain or isolate: Asibi ; result: 261 µg/mL
CC1S/C(=N/N=C2\C(=O)Nc3ccc([N+](=O)[O-])cc32)N(c2ccc([N+](=O)[O-])cc2)C1=O ; cells: VERO ; result: >100 µg/mL
N=C(N)c1ncn([C@@H]2O[C@H](CO)[C@@H](O)[C@H]2O)n1 ; result: >100 µM
C[C@]1(CO)O[C@@H](n2cc(F)c(=O)[nH]c2=O)[C@H](O)[C@@H]1O ; cells: HepG2.2.15 ; result: >10 µM
C[C@@]1(O)[C@H](O)[C@@H](COP(=O)(O)OP(=O)(O)OP(=O)(O)O)O[C@H]1n1ccc2c(N)ncnc21 ; cells: VERO ; result: 15 µM
Nc1ncn(C[C@@H](O)CO)c(=O)n1 ; cells: VERO ; result: >100 µg/mL
Nc1nc(=O)n2ccn([C@H]3C[C@H](O)[C@@H](CO)O3)c2n1 ; result: >100 µM
CC1S/C(=N/N=C2\C(=O)Nc3ccc([N+](=O)[O-])cc32)N(c2ccc(Cl)cc2)C1=O ; cells: VERO ; result: 1.59 µg/mL
Brc1ccc(Cn2ccc3nc(-c4ccccc4)nc-3c2)cc1 ; cells: VERO ; strain or isolate: 17D ; result: >50 µM
O=C1Nc2ccc([N+](=O)[O-])cc2/C1=N/N=C1/SCC(=O)N1c1ccc(F)cc1 ; cells: VERO ; result: >20 µg/mL
C[C@]1(CO)O[C@@H](n2cc(F)c(N)nc2=O)[C@H](O)[C@@H]1O ; cells: HepG2.2.15 ; result: >10 µM
CC(=O)OC[C@H]1O[C@@H](n2ncc(=O)[nH]c2=S)C(OC(C)=O)C1OC(C)=O ; cells: VERO ; strain or isolate: Asibi ; result: 12.6 µg/mL
O=[N+]([O-])c1ccc2[nH]c(O)c(N=NC(=S)Nc3ccc(Cl)cc3)c2c1 ; cells: VERO ; result: <0.8 µg/mL
Cc1cn([C@@H]2O[C@H](CO)[C@](O)(C(F)(F)F)[C@H]2O)c(=O)[nH]c1=O ; result: ≥100 µM
O=c1cnn([C@@H]2O[C@H](CO)[C@@H](O)[C@H]2O)c(=S)[nH]1 ; cells: VERO ; strain or isolate: Asibi ; result: 1.82 µg/mL
C[C@@]1(O)[C@H](O)[C@@H](CO)O[C@H]1n1ccn2c(=O)nc(N)nc12 ; result: >100 µM
CCOP(=O)(NC(C)C(=O)OC)OC[C@H]1O[C@@H](n2ncc(=O)[nH]c2=O)C(O)C1O ; cells: VERO ; strain or isolate: Asibi ; result: 160 µg/mL
Nc1nc(=O)n2ccn([C@@H]3C[C@@H](O)[C@H](CO)O3)c2n1 ; result: >100 µM
O=[N+]([O-])c1ccc2c(c1)c(N=NC(=S)Nc1ccccc1)c(O)n2CN1CCOCC1 ; cells: VERO ; result: 2.18 µg/mL
CC(=O)OC[C@H]1O[C@@H](n2ncc(=S)[nH]c2=S)C(OC(C)=O)C1OC(C)=O ; cells: VERO ; strain or isolate: Asibi ; result: 188 µg/mL

A second listing of 2 rows from above:

compound	cells	strain or isolate	result
CC(=O)OC[C@H]1O[C@@H](n2c(C(N)=S)cc(=O)[nH]c2=O)C(OC(C)=O)C1OC(C)=O	VERO	Asibi	261 µg/mL
CC1S/C(=N/N=C2\C(=O)Nc3ccc([N+](=O)[O-])cc32)N(c2ccc([N+](=O)[O-])cc2)C1=O	VERO	-	>100 µg/mL

Rows are shuffled and stem from different studies. ECn is the concentration giving n% inhibition of infection, replication or growth.